This is a selection; strong and weak results do not stand in their true shares. Active and inactive are the calls of the source. Cut-off read from the data, not from the text of the source: active = activity change below about -65%; inconclusive = mostly about -30% to -63%; inactive = weaker than that.

We go through 54 compounds from PubChem BioAssay AID651724 (National Center for Advancing Translational Sciences (NCATS), 2012).
% is set by controls: 0 for no effect and ±100 for the full control effect.

The subject of the experiment is CtBP / adenovirus E1A interaction (AlphaScreen). In words: qHTS Assay for Inhibitors of the CtBP/E1A Interaction. To be noted: AlphaScreen GST-E1A/His-CtBP binding, 1536-well; hits give low values. An excerpt: Carboxyl-terminal binding protein (CtBP) is a co-repressor for many transcription factors. […] Our studies have shown that CtBP is overexpressed in multiple human cancers, including lung, breast, and head and neck cancers. In particular, it is over-expressed in 50% of primary lung cancer and 90% of metastatic lesions. CtBP suppresses epithelial-specific genes as well as genes critical for apoptosis, providing the underlying molecular mechanism for its role in tumorigenesis. […] Based on the above data, we hypothesize that 1) CtBP suppresses the pro-apoptotic and epithelial genes, therefore overexpressed CtBP in human cancer cells increases EMT and cancer survival; 2) decreasing CtBP's function represents a targeted therapy for lung cancer and potentially multiple cancer types. As a co-repressor, CtBP binds to E1A and other transcription factors through a conserved peptide motif to carry out its action. Inhibiting this interaction using small molecules can potentially serve as effective cancer therapeutics.
To this end, we have developed a homogenous AlphaScreen assay targeting the CtBP/E1A interaction. We performed a large scale HTS of the Molecular Libraries Small Molecule Repository (MLSMR) to identify inhibitors of the CtBP/E1A interaction as potential anti-cancer therapeutics. Compounds identified can also be used as chemical probes to better understand the biological functions of CtBP.
NIH Chemical Genomics Center [NCGC]
NIH Molecular Libraries Probe Centers Network [MLPCN]
Assay Submitter (PI): Rui Zhao, University of Colorado Denver
The first step of the 5uL AlphaScreen assay is to dispense assay buffer (50 mM Tris, pH 8.0, 300 mM NaCl, 0.05% BSA, 0.02% Tween 20, 1 mM TCEP) into a Greiner 1536 white solid bottom microtiter plate (789175-F). Five microliters is added to Column 1, 4 uL is added to Column 2 and 3 uL is added to Columns 3 through 48. A 5X protein solution (125 nM GST-E1A protein + 125 nM His-tagged CtBP protein) is mixed and 1 uL is dispensed to Columns 3-48. Using a 1536 pintool, 23 nL of compound is transferred to the assay plate and the plate is incubated with a lid at 37 deg C in the dark for two hours. A solution of 5X AlphaScreen beads is mixed (50 ug/mL Glutathione linked donor beads + Nickel chelated acceptor beads) and 1 uL is dispensed to Columns 2-48. The assay plate is incubated for one hour, with a lid, at 37 deg C in the dark. The plate is read using a Perkin Elmer Envision using an AlphaScreen protocol.
In the case of `CN1CCC(Nc2ccc(F)c(Cl)c2)CC1`, the activity change was inactive: 7.02%.
In the case of `CCOc1ncccc1C(=O)NCC1(N2CCOCC2)CCCCC1`, the activity change is inactive: -3.6%.
With `NN(c1ccccc1)C1CCN(CCc2ccccc2)CC1`, the activity change was inactive: -10%.
For the compound `CC(C)(C)OC(=O)N1CCC(Nc2ccccc2)CC1`, the activity change is inactive: -10.9%.
Regarding `O=c1[nH]c2ccccc2n1C1CCN(C(c2cc3ccccc3o2)c2nnnn2C2CCCC2)CC1` (centres undefined), the activity change was inactive: -9.09%.
Under `CCCOc1ccc(C(=O)NCC2(N(C)C)CCCCC2)cc1` stands inactive: 4.6%; under `COc1cccc(C(=O)N(c2cc(C)cc(C)c2)C2CCN(C(=O)OC(C)(C)C)CC2)c1`, inactive: 5.09%; under `COc1cc(OC)cc(C(=O)NCC2(N3CCOCC3)CCCCC2)c1`, inactive: 2.13%.
Under `COc1cccc(C(c2nnnn2C2CCCC2)N2CCC(n3c(=O)[nH]c4ccccc43)CC2)c1OC` (centres undefined) stands inactive: -5.31%.
Take `CCC(CO)(C(=O)OC1CN2CCC1CC2)c1ccccc1` (centres undefined): the activity change is inactive: -2.62%.
On to `CCC(c1nnnn1C1CCCCC1)N1CCC(n2c(=O)[nH]c3ccccc32)CC1` (centres undefined), for which the activity change was inactive: -18.9%.
With `COc1cccc(C(c2nnnn2C2CCCCC2)N2CCC(n3c(=O)[nH]c4ccccc43)CC2)c1OC` (centres undefined), the activity change is inactive: -15.7%.
For `CC(=O)N(c1ccccc1)C1CCNCC1` the value was inactive: -0.214%; for `COc1cc(OC)cc(C(=O)NCC2(N3CCCCC3)CCCCC2)c1`, inactive: 0%.
Take `O=c1[nH]c2ccccc2n1C1CCN(C(c2ccnc3ccccc23)c2nnnn2C2CCCCC2)CC1` (centres undefined): the activity change is inactive: -2.29%.
For `Fc1ccccc1NC1CCN(Cc2ccccc2)CC1` the value was inactive: 8.2%.
On to `Cc1ccc(Nc2c([N+](=O)[O-])cc([N+](=O)[O-])cc2[N+](=O)[O-])cc1`, for which the activity change was inactive: -4.85%.
For `Cc1ccc(C(=O)NCC2(N3CCCCC3)CCCCC2)o1` the value was inactive: 3.55%; for `Cc1ccc(NC2(C#N)CCN(Cc3ccccc3)CC2)cc1`, inactive: 9.09%.
Take `COc1ccc(C(c2nnnn2C2CCCCC2)N2CCC(n3c(=O)[nH]c4ccccc43)CC2)cc1` (centres undefined): the activity change was inactive: 1.84%.
For the compound `CCN1CCC(Nc2cccc(F)c2)CC1`, the activity change was inactive: -10.2%.
For `CC(C)(C)n1nnnc1C(c1ccnc2ccccc12)N1CCC(n2c(=O)[nH]c3ccccc32)CC1` (centres undefined) the value was inactive: -22.4%; for `Cc1ccccc1NC1(C#N)CCN(Cc2ccccc2)CC1`, inactive: 7.65%; for `CN(C)c1ccc(C(=O)NCC2(N3CCCCC3)CCCCC2)cc1`, inactive: 1.41%.
For the compound `Cn1c(=O)[nH]cc(N(CCCl)CCCl)c1=O`, the activity change is inactive: 14.3%.
Consider `O=C(NCC1(N2CCCCC2)CCCCC1)c1ccco1`, for which the activity change is inactive: 1.14%.
With `N#Cc1ccc(C(=O)NCC2(N3CCCCC3)CCCCC2)cc1`, the activity change is inactive: 0%.
On to `CC(C)(C)OC(=O)N1CCC(N(C(=O)c2ccccc2)c2ccc(Cl)cc2)CC1`, for which the activity change was inactive: -4.24%.
Consider `CCOC(=O)C(CC)C1=NC(C)(C)Cc2ccccc21.O=[N+]([O-])c1cc([N+](=O)[O-])c(O)c([N+](=O)[O-])c1` (centres undefined), for which the activity change is inactive: 2.93%.
Under `CN(C)C1(CNC(=O)c2cccc(C#N)c2)CCCCC1` stands inactive: 9.52%; under `O=c1[nH]c2ccccc2n1C1CCN(C(c2ccccc2)c2nnnn2C2CCCC2)CC1` (centres undefined), inactive: -11.7%; under `CCCN1CCC(Nc2cc(OC)cc(OC)c2)CC1`, inactive: 3%.
Regarding `Cc1cc(N(CCCl)CCCl)ccc1C=O`, the activity change is inactive: 12.3%.
On to `c1ccc(CN2CCC(Nc3ccccc3)CC2)cc1`, for which the activity change was inactive: -0.296%.
As for `CC(C)(C)n1nnnc1C(c1cccc2ccccc12)N1CCC(n2c(=O)[nH]c3ccccc32)CC1` (centres undefined), the activity change was inactive: -12.3%.
For `CCCCn1nnnc1C(c1ccccc1)N1CCC(n2c(=O)[nH]c3ccccc32)CC1` (centres undefined) the value was inactive: -3.55%.
On to `O=C(NCC1(N2CCOCC2)CCCCC1)c1cc(Br)ccc1Cl`, for which the activity change is inactive: 0%.
On to `O=c1[nH]c2ccccc2n1C1CCN(C(c2cccs2)c2nnnn2C2CCCCC2)CC1` (centres undefined), for which the activity change is inactive: -3.9%.
As to `O=c1[nH]c2ccccc2n1C1CCN(C(c2ccnc3ccccc23)c2nnnn2C2CCCC2)CC1` (centres undefined), the activity change was inactive: -3.71%.
Regarding `CCOC(=O)N1CCC(Nc2ccc(C)cc2)CC1`, the activity change is inactive: -7.15%.
With `COc1cccc(C(c2nnnn2C(C)(C)C)N2CCC(n3c(=O)[nH]c4ccccc43)CC2)c1OC` (centres undefined), the activity change was inactive: -25.2%.
For `N/C(=N\O)c1c(N)no[n+]1[O-]` the value was inactive: -0.681%; for `O=c1[nH]c2ccccc2n1C1CCN(C(c2cccs2)c2nnnn2C2CCCC2)CC1` (centres undefined), inactive: -11.3%.
Under `CCc1cc(C(=O)NCC2(N3CCCCC3)CCCCC2)sc1C` stands inactive: -1.75%.
For `O=C(OC1CN2CCC1CC2)C1c2ccccc2C=Cc2ccccc21` (centres undefined) the value was inactive: -15.4%; for `CCCCn1nnnc1C(c1cccc(OC)c1OC)N1CCC(n2c(=O)[nH]c3ccccc32)CC1` (centres undefined), inactive: -3.87%.
Take `CCCCn1nnnc1C(c1ccccc1OC(F)(F)F)N1CCC(n2c(=O)[nH]c3ccccc32)CC1` (centres undefined): the activity change is inactive: -13.7%.
Under `CC(C)c1ccc(NC2CCN(C(=O)OC(C)(C)C)CC2)cc1` stands inactive: 2.86%.
With `CN(C)c1cccc(C(=O)NCC2(N3CCCCC3)CCCCC2)c1`, the activity change was inactive: 1.85%.
Regarding `O=[N+]([O-])c1cc([N+](=O)[O-])c(OC2CCCCC2O)c([N+](=O)[O-])c1` (centres undefined), the activity change is inactive: 0%.
Consider `COc1ccc(CN(CCCl)CCCl)cc1Cl`, for which the activity change was inactive: 7.86%.
Take `CCC(c1nnnn1C(C)(C)C)N1CCC(n2c(=O)[nH]c3ccccc32)CC1` (centres undefined): the activity change was inactive: -4.19%.
Under `COc1cc(OC)c(C(=O)NCC2(N(C)C)CCCCC2)cc1OC` stands inactive: -7.95%; under `CCCCn1nnnc1C(c1ccnc2ccccc12)N1CCC(n2c(=O)[nH]c3ccccc32)CC1` (centres undefined), inactive: -13.9%.
